Compound potency records, mixed from different reports. Data source: NIAID ChemDB in PubChem.

Common to all: enzyme or target tests; agent: HIV-1; target: Reverse transcriptase; read-out: IC50

An empty or dashed field is not shown. Neighbouring rows are from separate reports. ICn: concentration for n% inhibition.

SMILES	strain or isolate	mutations	method	value
CCN1c2ncc(CCOc3ccc(C(=O)Nc4nc(CC(=O)O)cs4)cc3C)cc2C(=O)N(C)c2cccnc21	IIIB	RT-K103N Y181C	nucleotide incorporation / radiometric	<0.05 µM
COc1cccc2[nH]c(C(=O)N3CCN(c4ncccc4NC(C)C)CC3)cc12	-	-	nucleotide incorporation	<100 µM
C=CCN1C(=O)c2cccc(C)c2Oc2ncccc21	LAV	-	nucleotide incorporation / radiometric	<10 µg/mL
CCCOC(=O)N1c2ccc(OC)cc2C=CC1C#N	-	-	nucleotide incorporation	8.1 µM
CC(C)(C)Nc1cccnc1N1CCN(C(=O)c2cc3cc(F)ccc3[nH]2)CC1	-	-	nucleotide incorporation	<100 µM
CCN1c2ncc(CCOc3ccc(-c4cc(C(=O)O)ccc4C)cc3C)cc2C(=O)N(C)c2cccnc21	IIIB	-	nucleotide incorporation / radiometric	<0.05 µM
COc1cc(O)c2c(c1)OC(c1ccc(Oc3cc(-c4cc(=O)c5c(O)cc(O)cc5o4)ccc3O)cc1)CC2=O	-	-	nucleotide incorporation / radiometric	2.4 µg/mL
O=C(c1cc2cc(F)ccc2[nH]1)N1CCN(c2ncccc2NCC(F)(F)F)CC1	-	-	nucleotide incorporation	>100 µM
CCOC(=O)N1c2ccc(OC)cc2C=CC1C#N	-	RT-P236L	nucleotide incorporation	17.6 µM
CCN1c2ncc(CCOc3ccc(-c4cc(C)[n+]([O-])c(C)c4)cc3C)cc2C(=O)N(C)c2cccnc21	IIIB	RT-K103N Y181C	nucleotide incorporation / radiometric	<0.05 µM
N#CC1C=Cc2cc([N+](=O)[O-])ccc2N1C(=O)OCCBr	-	-	nucleotide incorporation	>50 µM
CCC(=O)N1C(=O)c2cc(C)ccc2Oc2ncccc21	LAV	-	nucleotide incorporation / radiometric	~10 µg/mL
CC(C)OC(=O)N1c2ccccc2C=CC1C#N	-	RT-P236L	nucleotide incorporation	1.2 µM
CN1C(=O)c2ccccc2Oc2ncccc21	LAV	-	nucleotide incorporation / radiometric	>10 µg/mL
CC(C)Nc1cccnc1N1CCCN(C(=O)c2cc3cc(F)ccc3[nH]2)CC1	-	-	nucleotide incorporation	<100 µM
CC(C)=CCc1c(O[C@@H]2O[C@H](CO)[C@@H](O)[C@H](O)[C@H]2O)cc2c(c1O)C(=O)[C@H](O)[C@@H](c1ccc(O)cc1)O2	-	-	nucleotide incorporation / radiometric	>200 µg/mL
COc1c2c(c(OC)c3occc13)OC=C(C=O)C2O	-	-	scintillation proximity / radiometric	17.53 µM
Nc1nc2c(ncn2[C@H]2CC[C@@H](COP(=O)(O)OP(=O)(O)OP(=O)(O)O)O2)c(=O)[nH]1	-	RT-Q151M	nucleotide incorporation / radiometric	0.075 µM
CCCOC(=O)N1c2ccccc2C=CC1C#N	-	-	nucleotide incorporation	13.9 µM
CN1C(=O)c2cc(N)ccc2Oc2ncccc21	LAV	-	nucleotide incorporation / radiometric	10 µg/mL
Nc1ncnc2c1ncn2[C@H]1CC[C@@H](COP(=O)(O)OP(=O)(O)OP(=O)(O)O)O1	IIIB	RT-1(IIIB)	nucleotide incorporation / radiometric	4.3 µM
CC(C)Nc1cccnc1N(C)N1CCN(C(=O)c2cc3ccccc3[nH]2)CC1	-	-	nucleotide incorporation	<100 µM
NCCCNC(=O)c1ccc(NC(=O)CSC(=O)N2CCCc3cc(Cl)cc(Cl)c32)c(Cl)c1	-	WT	scintillation proximity	0.002 µM
CCN1C(=O)c2ccc(C)cc2Oc2ncccc21	LAV	-	nucleotide incorporation / radiometric	>10 µg/mL
CC(C)Nc1cccnc1N(C)CCOC(=O)c1cc2ccccc2[nH]1	-	-	nucleotide incorporation	<100 µM
CCCCCCCCCCCCCCCC(=O)NCC1OC(n2cnc3c(N)ncnc32)C(OP(=O)(O)OCC2OC(n3cnc4c(N)ncnc43)C(OP(=O)(O)OCC3CC(O)C(n4cnc5c(N)ncnc54)O3)C2O)C1O	IIIB	-	RT activity	<100 µM
CCC(C)N1C(=O)c2ccccc2Oc2ncccc21	LAV	-	nucleotide incorporation / radiometric	10 µg/mL
CCCCCCCCCCCCCCCC(=O)NCC1OC(n2cnc3c(N)ncnc32)C(OP(=O)(O)OCC2CC(OP(=O)(O)OCC3OC(n4cnc5c(N)ncnc54)C(O)C3O)C(n3cnc4c(N)ncnc43)O2)C1O	IIIB	-	RT activity	<100 µM
CCC(=O)c1ccc(F)c([C@H]2C[C@H]2NC(=O)Nc2ccc(Br)cn2)c1O	IIIB	RT-K103N	-	0.014 µM
CC(C)Nc1cccnc1N1CCN(C(=O)c2nc3ccccc3[nH]2)CC1	-	-	nucleotide incorporation	<100 µM
CCNCC(=O)Nc1ccc(-c2nc(=O)n(CCOC)c3c2oc2ccc(Cl)cc23)cc1	BH10	-	PicoGreen / fluorescence	0.12 µM
CC(C)Nc1cccnc1N1CCN(C(=O)c2cc3c(ccc4ccccc43)[nH]2)CC1	-	-	nucleotide incorporation	<100 µM
CCCCOC(=O)N1c2ccccc2C=CC1C#N	-	RT-P236L	nucleotide incorporation	4.3 µM
COc1cc(O)c2c(=O)cc(-c3ccc(Oc4cc(-c5cc(=O)c6c(O)cc(O)cc6o5)ccc4O)cc3)oc2c1	-	-	nucleotide incorporation / radiometric	2 µg/mL
CCN1c2ncc(CCOc3ccc(-c4cc(C(=O)O)ccc4OC)cc3C)cc2C(=O)N(C)c2cccnc21	IIIB	RT-K103N Y181C	nucleotide incorporation / radiometric	>0.1 µM
COC(=O)N1c2ccccc2C=CC1C#N	-	-	nucleotide incorporation	>50 µM

A second listing of 4 rows from above:

SMILES,strain or isolate,mutations,method,value
CCNCC(=O)Nc1ccc(-c2nc(=O)n(CCOC)c3c2oc2ccc(Cl)cc23)cc1,BH10,-,PicoGreen / fluorescence,0.12 µM
CCC(C)N1C(=O)c2ccccc2Oc2ncccc21,LAV,-,nucleotide incorporation / radiometric,10 µg/mL
COc1c2c(c(OC)c3occc13)OC=C(C=O)C2O,-,-,scintillation proximity / radiometric,17.53 µM
CC(C)=CCc1c(O[C@@H]2O[C@H](CO)[C@@H](O)[C@H](O)[C@H]2O)cc2c(c1O)C(=O)[C@H](O)[C@@H](c1ccc(O)cc1)O2,-,-,nucleotide incorporation / radiometric,>200 µg/mL